Pooled drug test results. Numbers come from NIAID ChemDB, via PubChem.

All rows: whole-cell or culture tests; species: HIV-1; cell line: MT-4; read-out: EC50

Neighbouring rows are from separate reports. An empty or dashed field is not shown. ECn is the concentration giving n% inhibition of infection, replication or growth.

compound | strain | mutations | method | result
Cc1cn([C@H]2C[C@H](N=[N+]=[N-])[C@@H](CO)O2)c(=O)[nH]c1=O | NL43)(JM3100r) |  | cytopathic effect / MTT | 0.0016 µg/mL
C#Cc1ccc(Nc2nccc(Oc3c(C)cc(-c4cn(Cc5ccc(S(N)(=O)=O)cc5)nn4)cc3C)n2)cc1 | IIIB | K103N | MTT | 0.1 µM
Cc1cc(C#N)cc(C)c1Oc1nc(Nc2ccc(C#N)cc2)nc(N)c1Br | IIIB | NNRTI-resistant (RT F227L V106A) | MTT | 0.0294 µM
Cc1cc(C)c(Oc2ccc(N)c(NC3CCN(Cc4ccc(C(N)=O)cc4)CC3)n2)c(C)c1 | IIIB |  | MTT | 0.058 µg/mL
C#Cc1ccc(Nc2nccc(Oc3c(C)cc(-c4cn(CCCC(=O)OC)nn4)cc3C)n2)cc1 | IIIB | L100I | MTT | 7.1 µM
c1ccc(CNCc2ccc(CN3CCCNCCNCCCNCC3)cc2)nc1 | HE |  | cytopathic effect / MTS | 0.0098 µM
O=C(c1ccccc1)c1ccc2c(c1)nc1n2C(c2c(Cl)cccc2Cl)SC1 | IIIB |  | cytopathic effect / MTT | >28.3 µM
Cc1cc(C)c(Nc2ccc([N+](=O)[O-])c(NC3CCN(Cc4ccncc4)CC3)n2)c(C)c1 | IIIB | Resistant strain (K103N + Y181C) | MTT | >31 µM
N#Cc1ccc(Nc2nc(Cc3c(Cl)cccc3Cl)nc(NO)n2)cc1 | NNRTI-resistant (RT L100I K103N) | RT-L100I K103N | cytopathic effect / MTT | 5 µM
CC(C)=CCN1Cc2cc(Cl)cc3[nH]c(=S)n(c23)C[C@@H]1C | ADP144 (RT-L74V) | RT-L74V | MTT | 0.0004 µg/mL
Cc1cc(C)c(Oc2ccc([N+](=O)[O-])c(NC3CCN(Cc4ccncc4)CC3)n2)c(C)c1 | IIIB | Resistant strain (K103N + Y181C) | MTT | >239 µM
C=C1[C@H](CO)[C@@H](O)C[C@@H]1n1cnc2c(=O)[nH]c(N)nc21 | IIIB | L100I | MTT | 0.006 µM
Fc1ccc2c(c1)nc1n2C(c2c(F)cccc2Cl)SC1 | IIIB |  | cytopathic effect / MTT | 6.5 µM
O=S(=O)(O)OCC1OC2OC3C(COS(=O)(=O)O)OC(OC4C(COS(=O)(=O)O)OC(OC5C(COS(=O)(=O)O)OC(OC6C(COS(=O)(=O)O)OC(OC7C(COS(=O)(=O)O)OC(OC8C(COS(=O)(=O)O)OC(OC1C(OS(=O)(=O)O)C2OS(=O)(=O)O)C(OS(=O)(=O)O)C8OS(=O)(=O)O)C(OS(=O)(=O)O)C7OS(=O)(=O)O)C(OS(=O)(=O)O)C6OS(=O)(=O)O)C(OS(=O)(=O)O)C5OS(=O)(=O)O)C(OS(=O)(=O)O)C4OS(=O)(=O)O)C(OS(=O)(=O)O)C3OS(=O)(=O)O | NL43)(JM3100r) |  | cytopathic effect / MTT | 105 µg/mL
Cc1cn([C@H]2C[C@H](N=[N+]=[N-])[C@@H](CO)O2)c(=O)[nH]c1=O | NNRTI-resistant (RT Y181C) | RT-Y181C | cytopathic effect / MTT | 0.02 µM
CCOC(=O)C1CN(Cc2ccc(S(N)(=O)=O)cc2)CCC1Nc1nc(Oc2c(C)cc(C#N)cc2C)c2sccc2n1 | IIIB | NNRTI-resistant (RT F227L V106A) | MTT | 0.00127 µM
Cc1cccc2c1nc1n2C(c2c(F)cccc2F)SC1 | IIIB |  | cytopathic effect / MTT | 3 µM
Cc1ccnc2c1NC(=O)c1cccnc1N2C1CC1 | IIIB | Resistant strain (K103N + Y181C) | MTT | 5.1 µM
COc1ccc2c(c1)nc1n2C(c2c(Cl)cccc2Cl)SC1 | IIIB |  | cytopathic effect / MTT | >1.7 µM
Cc1ccnc2c1NC(=O)c1cccnc1N2C1CC1 | IIIB | L100I | MTT | 2.22 µM
Cc1cn([C@H]2C[C@H](N=[N+]=[N-])[C@@H](CO)O2)c(=O)[nH]c1=O | IIIB | NNRTI-resistant (RT F227L V106A) | MTT | 0.00479 µM
C#Cc1ccc(Nc2nccc(Oc3c(C)cc(-c4cn(-c5ccc(C(=O)O)cc5)nn4)cc3C)n2)cc1 | IIIB | L100I | MTT | 0.77 µM
O=S(=O)(O)OCC1OC2OC3C(COS(=O)(=O)O)OC(OC4C(COS(=O)(=O)O)OC(OC5C(COS(=O)(=O)O)OC(OC6C(COS(=O)(=O)O)OC(OC7C(COS(=O)(=O)O)OC(OC8C(COS(=O)(=O)O)OC(OC9C(COS(=O)(=O)O)OC(OC1C(OS(=O)(=O)O)C2OS(=O)(=O)O)C(OS(=O)(=O)O)C9OS(=O)(=O)O)C(OS(=O)(=O)O)C8OS(=O)(=O)O)C(OS(=O)(=O)O)C7OS(=O)(=O)O)C(OS(=O)(=O)O)C6OS(=O)(=O)O)C(OS(=O)(=O)O)C5OS(=O)(=O)O)C(OS(=O)(=O)O)C4OS(=O)(=O)O)C(OS(=O)(=O)O)C3OS(=O)(=O)O | NL4-3 |  | cytopathic effect / MTT | 1.7 µg/mL
COc1ccc2nc3n(c2c1)C(c1c(F)cccc1F)SC3 | IIIB |  | cytopathic effect / MTT | >392 µM
CC(C)=CCN1c2cc(Cl)cc3[nH]c(=S)n(c23)C[C@@H]1C |  | RT-K70R K103N |  | <1.5 µM
Cc1cc(C)c(Oc2ccc(N)c(NC3CCN(Cc4ccncc4)CC3)n2)c(C)c1 | IIIB | Resistant strain (K103N + Y181C) | MTT | 2.5 µM
O=C(c1ccccc1)c1ccc2c(c1)nc1n2C(c2c(F)cccc2Cl)SC1 | IIIB |  | cytopathic effect / MTT | >26.7 µM
Cc1cn([C@H]2C[C@H](N=[N+]=[N-])[C@@H](CO)O2)c(=O)[nH]c1=O | RF |  | cytopathic effect / MTS | 0.0019 µM
O=C(c1ccccc1)c1ccc2nc3n(c2c1)C(c1c(F)cccc1Cl)SC3 | IIIB |  | cytopathic effect / MTT | >1.2 µM
Cc1cc(C)c(Oc2ccc([N+](=O)[O-])c(NC3CCN(Cc4ccc(S(N)(=O)=O)cc4)CC3)n2)c(C)c1 | IIIB | Resistant strain (K103N + Y181C) | MTT | >5.7 µM
Cc1cc(C)c(Nc2nc(Nc3ccc(C#N)cc3)ncc2Cl)c(C)c1 | LAI WT |  | cytopathic effect / MTT | 0.003 µM
Cc1cc(C#N)cc(C)c1Oc1ccc(N)c(NC2CCN(Cc3ccncc3)CC2)n1 | IIIB | Resistant strain (K103N + Y181C) | MTT | 1 µM
C#Cc1ccc(Nc2nccc(Oc3c(C)cc(-c4cn(Cc5ccc([N+](=O)[O-])cc5)nn4)cc3C)n2)cc1 | RES056 |  | MTT | >160 µM
COc1ccc2nc3n(c2c1)C(c1c(F)cccc1Cl)SC3 | IIIB |  | cytopathic effect / MTT | >373 µM
Cc1cn([C@H]2C[C@H](N=[N+]=[N-])[C@@H](COC(=O)NCCSC(=O)OC[C@@H]3CC[C@H](n4cnc5c(=O)[nH]cnc54)O3)O2)c(=O)[nH]c1=O | EFV-resistant (RT K103R V179D P225H) | RT-K103R V179D P225H | cytopathic effect / MTT | 0.2 µM
C#Cc1ccc(Nc2nccc(Oc3c(C)cc(-c4cn(Cc5ccccc5)nn4)cc3C)n2)cc1 | IIIB | K103N | MTT | 0.22 µM
Cc1cn([C@H]2C=C[C@@H](COC(=O)NCCSC(=O)OC[C@@H]3CC[C@H](n4cnc5c(=O)[nH]cnc54)O3)O2)c(=O)[nH]c1=O | NNRTI-resistant (RT K103N Y181C) | RT-K103N Y181C | cytopathic effect / MTT | >20 µM
Cc1cc(C)c(Oc2ccc(N)c(NC3CCN(Cc4ccc(S(C)(=O)=O)cc4)CC3)n2)c(C)c1 | IIIB |  | MTT | 0.116 µg/mL

A second listing of 3 rows from above:

| compound | strain | mutations | method | result |
|---|---|---|---|---|
| Cc1cn([C@H]2C[C@H](N=[N+]=[N-])[C@@H](CO)O2)c(=O)[nH]c1=O | IIIB | NNRTI-resistant (RT F227L V106A) | MTT | 0.00479 µM |
| Cc1cn([C@H]2C[C@H](N=[N+]=[N-])[C@@H](CO)O2)c(=O)[nH]c1=O | NL43)(JM3100r) |  | cytopathic effect / MTT | 0.0016 µg/mL |
| O=C(c1ccccc1)c1ccc2c(c1)nc1n2C(c2c(Cl)cccc2Cl)SC1 | IIIB |  | cytopathic effect / MTT | >28.3 µM |